Results of unrelated studies side by side (data: NIAID ChemDB).

Common to all: host cell toxicity; measure: CC50

Blank or dashed fields: not listed here.

compound	cell line	method	result
N#Cc1ccc(-c2c(O)c3cccnc3n(O)c2=O)cc1	HeLa	-	<100 µM
CCOC(=O)[C@@]1(C)CC[C@]2(C)CC[C@]3(C)C(=CC(=O)[C@@H]4[C@@]5(C)CC/C(=N\OCc6c(C)noc6C)C(C)(C)[C@@H]5CC[C@]43C)[C@@H]2C1	K562	MTT	22.49 µM
CC(C)COc1cccc(-c2ccc(C(=O)N(Cc3cccc(OCCCCCC(=O)OC(=O)O)c3)C(C)C)cc2)c1	BJ	-	>20 µM
O=c1cnn([C@@H]2O[C@H](CO)[C@@H](O)[C@H]2O)c(=O)[nH]1	Madin-Darby bovine kidney	MTT / crystal violet	>100 µg/mL
N#Cc1cc(C#N)c2[nH]c3ccccc3n2c1=O	HEP-2	-	50 µg/mL
O=c1c2ccccc2c(=O)n(-c2ccccc2)n1CC(O)CO	HepG2 2.2.15	-	>10 µM
N#Cc1nc2c(-c3nc4ccccc4[nH]3)c(N)n(CCc3ccc(N)cc3)c2nc1C#N	L6 rat skeletal myoblasts	resazurin / fluorescence	158 µM
CCOC(=O)c1c(-c2ccccc2)c(-c2ccccc2)nn(CC(O)CO)c1=O	HepG2 2.2.15	-	>10 µM
Nc1nc(OC[C@H]2CC[C@@H](COCc3ccccc3)O2)c2[nH]cnc2n1	L1210	-	140 µM
CCCCc1ccc(Nc2ncnc3c2cnn3-c2cccc(Cl)c2)cc1	HUH 9B	-	>50 µM
COc1cc(OC[C@H]2CC[C@@H](CO)O2)ncn1	CAKI-1	-	150 µM
O=S1(=O)C=C(OCc2ccccc2)C(Cc2ccccc2)(Cc2ccccc2)O1	HEL fibroblasts	-	>200 µM
CCOC(=O)c1c(O)c2cc(C(=O)N3CCC(CCCc4ccccc4)CC3)cnc2n(O)c1=O	HeLa	-	<100 µM
N#Cc1nc2c(-c3nc4ccccc4[nH]3)c(N)n(Cc3ccc4c(c3)OCO4)c2nc1C#N	L6 rat skeletal myoblasts	resazurin / fluorescence	53 µM
CCOC(=O)[C@@]1(C)CC[C@]2(C)CC[C@]3(C)C(=CC(=O)[C@@H]4[C@@]5(C)CC/C(=N\OCc6ccc7ccccc7c6)C(C)(C)[C@@H]5CC[C@]43C)[C@@H]2C1	CT26	MTT	71.43 µM
CC(CCOc1ccc(-c2noc(C(F)(F)F)n2)cc1)CCN1CCN(c2ccncc2)C1=O	RD	-	>25 µM
CCCCn1c(=O)c2ccccc2c2cc(C(O)(C(F)(F)F)C(F)(F)F)cc(F)c21	Replicon cells	tetrazolium	12.1 µM
O=c1cc(NCc2cccc(N3CCOCC3)n2)c2cccnc2n1O	HeLa	-	0.11 µM
CC(C)(CCCN1CCN(c2ccncc2)C1=O)COc1ccc(-c2ccc(Cl)cc2)cc1	RD	-	>25 µM
CC(C)CCn1c(N)c(-c2nc3ccccc3[nH]2)c2nc(C#N)c(C#N)nc21	L6 rat skeletal myoblasts	resazurin / fluorescence	85 µM
O=c1nc2c(nc3ccccc13)Nc1ccccc1N2	MCF-7 breast cancer cells	sulforhodamine	1.39 µg/mL
COc1ccc(CCn2c(N)c(-c3nc4ccccc4[nH]3)c3nc(C#N)c(C#N)nc32)cc1	L6 rat skeletal myoblasts	resazurin / fluorescence	174 µM
CCOC(=O)Cn1c(CN2c3ccccc3Nc3nc(=O)c4ccccc4nc32)nc2ccccc21	MCF-7 breast cancer cells	sulforhodamine	0.934 µg/mL
CCOC(=O)[C@@]1(C)CC[C@]2(C)CC[C@]3(C)C(=CC(=O)[C@@H]4[C@@]5(C)CC/C(=N\OCc6cc(Br)cc(Br)c6)C(C)(C)[C@@H]5CC[C@]43C)[C@@H]2C1	K562	MTT	24.34 µM
CC(C)C(CCOc1ccc(-c2ccc(Cl)cc2)cc1)CCN1CCN(c2ccncc2)C1=O	RD	-	>25 µM
CCOC(=O)[C@@]1(C)CC[C@]2(C)CC[C@]3(C)C(=CC(=O)[C@@H]4[C@@]5(C)CC/C(=N\OCc6ccsc6)C(C)(C)[C@@H]5CC[C@]43C)[C@@H]2C1	K562	MTT	14.38 µM
CCC1(Cc2ccccc2)OS(=O)(=O)C=C1OCC=C(C)C	HEL fibroblasts	-	112 µM
CC(C)(CO)C(=O)Nc1ccc(NS(=O)(=O)c2cccc3c(N)cccc23)cc1	Human embryonic lung fibroblasts	-	125 µM
O=c1c(-c2ccccc2)c(O)c2cc(Br)cnc2n1O	HeLa	-	<100 µM
Cc1ccc(-n2ncc3c(Nc4ccc(C(F)(F)F)cc4)ncnc32)c(C)c1	HUH 9B	-	22 µM
COC(=O)c1cccc2oc(-c3cccc4oc(-c5ccccc5O)nc34)nc12	MCF-7 breast cancer cells	sulforhodamine	1.28 µM
Cc1ccc(-n2ncc3c(Nc4ccc(S(N)(=O)=O)cc4)ncnc32)c(C)c1	HUH 9B	-	>50 µM
CCOC(=O)CCCCCOc1cccc(CN(C(=O)c2ccccc2)C(C)C)c1	RAJI	-	>20 µM
COc1cc(OC[C@H]2CC[C@@H](CO)O2)nc(N)n1	CAKI-1	-	240 µM
CCOC(=O)c1c(NC(=O)c2c(F)c(F)c(F)c(F)c2F)sc2c1CCN(CC)C2	THP-1 human monocytic cells	-	6.2 µM
Nc1c(-c2nc3ccccc3[nH]2)cc(-c2ccccc2)n1-c1ccc(Cl)cc1	MCF-7 breast cancer cells	sulforhodamine	0.934 µg/mL
CCOC(=O)COc1ccc(C=O)cc1	BJ	-	>20 µM
COc1ccc(Cl)cc1Nc1ncnc2c1cnn2-c1ccc(Cl)cc1	HUH 9B	-	>31 µM
CCOC(=O)c1cc(CC(=O)c2ccccc2)c(=O)n2c1oc1ccccc12	HEP-2	-	40 µg/mL
CC(CCOc1ccc(-c2ccc(Cl)cc2)cc1)CCN1CCN(c2ccncc2)C1=O	RD	-	>25 µM
CCN(CC)CCCC(C)n1c(N)c(-c2nc3ccccc3[nH]2)c2nc(C#N)c(C#N)nc21	L6 rat skeletal myoblasts	resazurin / fluorescence	2 µM
CCOC(=O)[C@@]1(C)CC[C@]2(C)CC[C@]3(C)C(=CC(=O)[C@@H]4[C@@]5(C)CC/C(=N\OCc6cccc7ccccc67)C(C)(C)[C@@H]5CC[C@]43C)[C@@H]2C1	CT26	MTT	>100 µM
CCN1CCc2c(sc(NC(=O)c3c(F)c(F)c(F)c(F)c3F)c2C(N)=O)C1	THP-1 human monocytic cells	-	8.6 µM
O=c1cc(NCCc2cccnc2)c2cccnc2n1O	HeLa	-	<100 µM
CCCCn1c(=O)c2ccccc2c2cc(C(O)(C(F)(F)F)C(F)(F)F)ccc21	Replicon cells	tetrazolium	15.8 µM
Nc1nc(Cl)cc(OC[C@@H]2O[C@H](COCc3ccccc3)[C@@H](OCc3ccccc3)[C@H]2OCc2ccccc2)n1	PC-3	-	45 µM
CC(CCCCN1CCN(c2ccncc2)C1=O)Oc1ccc(-c2ccc(Cl)cc2)cc1	RD	-	>12.5 µM
NS(=O)(=O)c1ccc(CCNc2ncnc3c2cnn3-c2ccccc2C(F)(F)F)cc1	HUH 9B	-	>50 µM
O=c1cc(-c2cccc(-c3cccc(CNCc4ccccc4)c3)c2)c2cccnc2n1O	HeLa	-	<100 µM
CC(C)(CCl)C(=O)Nc1ccc(NS(=O)(=O)c2cccc3ccccc23)cc1	Mouse fibroblast cell lines	-	25 µM
CC(C)N(Cc1cccc(OCCCCCC(=O)OC(=O)O)c1)C(=O)c1ccc(-c2ccoc2)cc1	HEK 293	-	>20 µM
Nc1c(-c2nc3ccccc3[nH]2)cc(-c2ccccc2)n1-c1ccc(Br)cc1	A549 lung cancer cells	resazurin	13.5 µM
CCCCn1c(=O)c2cc(OC)ccc2c2c(OC)c(C(O)(C(F)(F)F)C(F)(F)F)c3c(c21)OCO3	Replicon cells	tetrazolium	>100 µM
CCOC(=O)c1c(O)c2cc(-c3cc(C)cc(C)c3)cnc2n(O)c1=O	HeLa	-	<100 µM
CCCCn1c(=O)c2ccccc2c2cc(C(O)(C(F)(F)F)C(F)(F)F)c(F)cc21	Replicon cells	tetrazolium	25.5 µM
CC(C)c1nc(CN(C)C(=O)N[C@H](C(=O)N[C@@H](Cc2ccccc2)C[C@H](O)[C@H](Cc2ccccc2)NC(=O)OCc2cncs2)C(C)C)cs1	EPG85-257P	-	80 µM
Nc1cc(OC[C@H]2CC[C@@H](CO)O2)ncn1	CAKI-1	-	154 µM
CC1(C(c2ccccc2)c2ccccc2)OS(=O)(=O)C=C1OCc1ccccc1	HEL fibroblasts	-	>200 µM
CC(=O)c1cc(CC(=O)c2ccccc2)c(=O)n2c1sc1ccccc12	HEP-2	-	40 µg/mL
CCCc1nc(-c2ccc(OCCC(C)CCN3CCN(c4ccncc4)C3=O)cc2)no1	RD	-	>12.5 µM
C[C@@]1(O)[C@H](O)[C@@H](CO)O[C@H]1n1cnc2c(=O)[nH]c(N)nc21	Madin-Darby bovine kidney	MTT / crystal violet	>100 µg/mL
N#Cc1nc2c(-c3nc4ccccc4[nH]3)c(N)n(CCCC(F)(F)F)c2nc1C#N	L6 rat skeletal myoblasts	resazurin / fluorescence	81 µM
Nc1nccc(OC[C@H]2CC[C@@H](CO)O2)n1	L1210	-	>250 µM
Nc1c(-c2nc3ccccc3[nH]2)cc(-c2ccccc2)n1Cc1nc2ccccc2[nH]1	MCF-7 breast cancer cells	sulforhodamine	0.972 µg/mL
Nc1nc(Cl)cc(OC[C@H]2O[C@H](COCc3ccccc3)[C@@H](OCc3ccccc3)[C@H]2OCc2ccccc2)n1	CAKI-1	-	>250 µM
O=C1N(Cc2ccccc2COc2ccc(-c3ccc(Cl)cc3)cc2)CCN1c1ccncc1	RD	-	>1.25 µM
Cc1ccc(CCn2c(N)c(-c3nc4ccccc4[nH]3)c3nc(C#N)c(C#N)nc32)cc1	L6 rat skeletal myoblasts	resazurin / fluorescence	141 µM
Nc1nc2c(ncn2COCCO)c(=O)[nH]1	Madin-Darby bovine kidney	MTT / crystal violet	>100 µg/mL
Cc1ccc(-n2ncc3c(Nc4ccc5[nH]ncc5c4)ncnc32)c(C)c1	HUH 9B	-	>50 µM
CCCCn1c(=O)c2cc(OC)ccc2c2c(OC)c(C(O)(C(F)(F)F)C(F)(F)F)cc(OC)c21	Replicon cells	tetrazolium	>100 µM
O=c1c(Cc2ccccc2)nc2ccccc2n1CC(O)CO	HepG2 2.2.15	-	>10 µM
CCOC(=O)CCCCCOc1cccc(CN(C(=O)c2ccc(-c3ccc4[nH]ccc4c3)cc2)C(C)C)c1	BJ	-	>20 µM
COC1=CCC(C2C3(CO)C4N(Cc5ccc(OC)cc5)C5C6(CO)C(c7ccc(OC)cc7)C4(CO)C3N(Cc3ccc(OC)cc3)C6C25CO)C=C1	EPG85-257P	-	80 µM
CC(C)(C)C(=O)Nc1ccc(NS(=O)(=O)c2cccc3ccccc23)cc1	Human embryonic lung fibroblasts	-	48.9 µM
N#Cc1nc2c(-c3nc4ccccc4[nH]3)c(N)n(CC(F)(F)C(F)(F)C(F)(F)F)c2nc1C#N	L6 rat skeletal myoblasts	resazurin / fluorescence	42 µM
CN(C)c1cccc2c(S(=O)(=O)Nc3ccc(NC(=O)C(C)(C)CF)cc3)cccc12	Mouse fibroblast cell lines	-	31.3 µM
O=c1cc(Nc2ccc(-c3ccccc3)cc2)c2cccnc2n1O	HeLa	-	<100 µM
CCCC(CCOc1ccc(-c2ccc(Cl)cc2)cc1)CCN1CCN(c2ccncc2)C1=O	RD	-	>25 µM
N#Cc1cc(NC(=O)c2ccccc2)c(=O)n2c1[nH]c1ccccc12	HEF	-	40 µg/mL

The first 9 rows once more:

N#Cc1ccc(-c2c(O)c3cccnc3n(O)c2=O)cc1 ; cell line: HeLa ; result: <100 µM
CCOC(=O)[C@@]1(C)CC[C@]2(C)CC[C@]3(C)C(=CC(=O)[C@@H]4[C@@]5(C)CC/C(=N\OCc6c(C)noc6C)C(C)(C)[C@@H]5CC[C@]43C)[C@@H]2C1 ; cell line: K562 ; method: MTT ; result: 22.49 µM
CC(C)COc1cccc(-c2ccc(C(=O)N(Cc3cccc(OCCCCCC(=O)OC(=O)O)c3)C(C)C)cc2)c1 ; cell line: BJ ; result: >20 µM
O=c1cnn([C@@H]2O[C@H](CO)[C@@H](O)[C@H]2O)c(=O)[nH]1 ; cell line: Madin-Darby bovine kidney ; method: MTT / crystal violet ; result: >100 µg/mL
N#Cc1cc(C#N)c2[nH]c3ccccc3n2c1=O ; cell line: HEP-2 ; result: 50 µg/mL
O=c1c2ccccc2c(=O)n(-c2ccccc2)n1CC(O)CO ; cell line: HepG2 2.2.15 ; result: >10 µM
N#Cc1nc2c(-c3nc4ccccc4[nH]3)c(N)n(CCc3ccc(N)cc3)c2nc1C#N ; cell line: L6 rat skeletal myoblasts ; method: resazurin / fluorescence ; result: 158 µM
CCOC(=O)c1c(-c2ccccc2)c(-c2ccccc2)nn(CC(O)CO)c1=O ; cell line: HepG2 2.2.15 ; result: >10 µM
Nc1nc(OC[C@H]2CC[C@@H](COCc3ccccc3)O2)c2[nH]cnc2n1 ; cell line: L1210 ; result: 140 µM

CCn is the concentration with n% toxicity to the cells. Lines come from different laboratories, so protocols vary.